Test results: publication PMC7593903

Target: T1, ZafA (UniProt A3QX02)
T1 sequence (looked up, limits assumed): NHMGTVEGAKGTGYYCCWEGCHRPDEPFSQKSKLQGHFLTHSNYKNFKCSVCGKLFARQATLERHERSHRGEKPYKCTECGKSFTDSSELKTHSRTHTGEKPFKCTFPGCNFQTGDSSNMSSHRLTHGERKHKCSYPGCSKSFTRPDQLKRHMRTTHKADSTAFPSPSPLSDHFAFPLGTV
Assay: EMSA
Details: copper added (partial inhibition); 10 mM Tris-HCl pH 8.0, 50 mM NaCl, 1 mM MgCl2, 500 uM EDTA, 500 uM DTT, 4% glycerol; 500 ng ZafA, 5 ng probe; 30 min at 25 C; Zn/Cu added 10 min after start of binding; recombinant protein; protein details: His-tag (pET-21(+), E. coli BL21); label: 32P; probe letters rebuilt from the primers and the genome

AAGGGCCCAGGGCCTGTCTTGTTGTACGACTTCACTTTCTCCCAGGGTGCCACTGCTTGCTATCTCTATGTAGATAACCGCTGTCTTTCCTCTTTTTTTGACCCTTTCTTCTATTGCTCTGGTCTGCT (double strand) [CtrC promoter EMSA probe, 128 bp]
binding result: binds more weakly

For at least one entry, the source does not settle the construct or the ends of the probe. Weaker means in comparison with the reference protein, sequence or condition of that experiment. Tags and fusion partners may be left off the protein sequences shown.
